# Only a part is listed here, and it is no random draw. Measured potencies and affinities stand elsewhere. Activity calls are given as the source filed them. Rule as the data show it: active = inhibition above about 13%; inconclusive = no clear call, values can overlap the other calls; inactive = below that.
# The chains behind the UniProt entries cited, without tags or fusion partners. Where a name states a change or a piece, a line headed by the entry shows the natural chain unless it says otherwise.
# UniProt P9WMN3: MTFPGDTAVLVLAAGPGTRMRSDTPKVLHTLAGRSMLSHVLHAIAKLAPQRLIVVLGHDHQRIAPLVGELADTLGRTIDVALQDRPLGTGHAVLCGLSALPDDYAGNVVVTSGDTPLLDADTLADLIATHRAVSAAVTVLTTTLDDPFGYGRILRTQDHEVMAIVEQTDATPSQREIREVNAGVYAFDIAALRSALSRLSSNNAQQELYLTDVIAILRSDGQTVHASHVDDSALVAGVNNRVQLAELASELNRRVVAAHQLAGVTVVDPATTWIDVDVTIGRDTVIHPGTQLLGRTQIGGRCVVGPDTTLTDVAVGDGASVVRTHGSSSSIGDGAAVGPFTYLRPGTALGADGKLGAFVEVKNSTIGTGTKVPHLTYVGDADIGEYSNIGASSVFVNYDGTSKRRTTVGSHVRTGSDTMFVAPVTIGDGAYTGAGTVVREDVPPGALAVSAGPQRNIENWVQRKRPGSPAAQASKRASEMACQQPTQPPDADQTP
# Target: Bifunctional protein GlmU (Mycobacterium tuberculosis (strain ATCC 25618 / H37Rv)) (UniProt P9WMN3)
# Test: inhibition of mycobacterial GlmU enzyme – biochemical, glucosamine-1-phosphate acetyltransferase (AID 1376);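 also: 0% = complete reaction with vehicle and 100% = reaction without substrate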
# Settings: M. tuberculosis GlmU acetyltransferase enzyme assay; hits give high values;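 tested at 30 µM in the primary screen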
row,Compound,inhibition
1,CCCOP(=S)(Nc1nc(N)cc(=O)[nH]1)OCCC,inactive: 3.59%
2,COc1cc(C2NCCC3(OCCO3)C2(C)C)cc(OC)c1OC (stereo not given),inactive: -4.51%
3,CCOP(=O)(Nc1cccc2ccccc12)OCC,inactive: 3.8%
4,Cc1c2c(nc3ccccc13)SC(C(Cl)Cl)C2 (stereo not given),inactive: -0.45%
5,O=C(OC1CN2CCC1CC2)C12CC3CC(CC(C3)C1)C2 (stereo not given),inactive: 3.58%
6,Cc1cc(=O)[nH]c(N[N+](=O)[O-])n1,inactive: -4.08%
7,COc1ccc2nc(NP(=O)(c3ccccc3)c3ccccc3)sc2c1,inactive: 3.38%
8,COc1cc(I)ccc1[As](=O)(O)O,inactive: -0.03%
9,COc1ccc(N/C(=N/P(=O)(N2CCOCC2)N2CCOCC2)N2CCOCC2)cc1,inactive: 2.59%
10,C[As](=O)(O)c1cccc(C(=O)O)c1,inactive: 2.97%
11,O=[As](O)(c1ccc(O)cc1)c1ccccc1O,inactive: 2.95%
12,Cc1ccc(OP(=O)(Nc2ccc([N+](=O)[O-])cn2)Oc2ccc(C)cc2)cc1,inactive: -1.92%
13,Cc1ccc2nc3c(c(C)c2c1)CC(C(Cl)Cl)S3 (stereo not given),inactive: 4.78%
14,ClCCSc1nnc(-c2cccnc2)o1,inactive: -0.28%
15,CC(C)c1ccc(OP(=O)(Nc2ccccn2)Oc2ccccc2F)cc1 (stereo not given),inactive: 0.25%
16,CC(C)NC(=O)NP(=O)(Oc1ccccc1)Oc1ccccc1,inactive: -1.2%
17,CCN(CC)C(=S)SC(NC=O)C(Cl)(Cl)Cl (stereo not given),inactive: 1.1%
18,O=[N+]([O-])c1cc([N+](=O)[O-])c(-c2ccn[nH]2)s1,inactive: -3.32%
19,Cc1cc(SC(NC(=O)c2ccccc2)C(Cl)(Cl)Cl)nc(C(C)C)n1 (stereo not given),inactive: 3.3%
20,Cc1cc(SC(NC=O)C(Cl)(Cl)Cl)ncn1 (stereo not given),inactive: 4.44%
21,O=P(Nc1ccccn1)(c1cccc2ccccc12)c1cccc2ccccc12,inactive: -1.81%
22,O=[N+]([O-])c1ccc(Nc2ccc(Oc3ccc([N+](=O)[O-])cc3[N+](=O)[O-])cc2)c([N+](=O)[O-])c1,inactive: 12.7%
23,COP1(=S)c2c(C)nn(CCC#N)c2N=C(c2ccc(F)cc2)N1C (stereo not given),inactive: -0.86%
24,CCOC(=O)c1ccc(NC(=O)C(C)(CCl)SC)cc1 (stereo not given),inactive: -4.31%
25,CCC(C)N(CC(C)C)C(=S)SC(NC(C)=O)C(Cl)(Cl)Cl (stereo not given),inactive: 2.25%

# Source: PubChem BioAssay AID1376 (SRMLSC, 2008)
